# Measurements: US20240091310A1, “COMPOSITIONS AND METHODS USEFUL FOR THE PREVENTION AND/OR TREATMENT OF DISEASE IN MAMMALS” (VIRO-GEN (PTY) LTD, priority 2020, published 2024)
# B1: Ksp37: Killer-specific secretory protein of 37 kDa, 223 amino acids, produced by cytotoxic lymphocytes; accession AB021123 (protein, UniProt Q9BYJ0 20-223, looked up)
# Fibroblast growth …: QAPRQKQGSTGEEFHFQTGGRDSCTMRPSSLGQGAGEVWLRVDCRNTDQTYWCEYRGQPSMCQAFAADPKPYWNQALQELRRLHHACQGAPVLRPSVCREAGPQAHMQQVTSSLKGSPEPNQQPEAGTPSLRPKATVKLTEATQLGKDSMEELGKAKPTTRPTAKPTQPGPRPGGNEEAKKKAWEHCWKPFQALCAFLISFFRG
# Assay: Levels of Ksp37 before and 4 hrs after HIV infection, LTNPs vs Progressors
# Parameters: species or system human
molecule,measurement,setting,value
B1,Initial Ksp37 levels before HIV infection,LTNPs,441 ± 235 ng/mL
same,Ksp37 levels 4 hrs after HIV infection,LTNPs,800 ± 529 ng/mL
same,Initial Ksp37 levels before HIV infection,Progressors,380 ± 200 ng/mL
same,Ksp37 levels 4 hrs after HIV infection,Progressors,246 ± 127 ng/mL
